Results of unrelated studies side by side (data: NIAID ChemDB).

Shared fields: tests on isolated targets; agent: HIV-1; protein: Reverse transcriptase; read-out: inhibition

Neighbouring rows are from separate reports. An empty or dashed field is not shown. Inhibition is in % at the dose shown (toxicity tests: loss of growth or viability).

| SMILES | strain or isolate | read by | dose | value |
|---|---|---|---|---|
| CCCOC(=O)N1c2ccccc2C=CC1C#N | - | nucleotide incorporation | 50 µM | 81.2% |
| O=C(NCCc1ccccc1)Nc1ccccc1Cl | - | nucleotide incorporation | 1 µg/mL | 31% |
| CCN1C(=O)c2cc(Cl)nnc2N(C2CC2)c2ccccc21 | - | - | 33 µM | 15% |
| CCN1C(=O)c2cc(Cl)nnc2Oc2ccc(C)cc21 | - | ELISA | 330 µM | 25% |
| CCCCCCCCCCCCCCc1sc(NC(=O)NCCc2ccccc2)nc1-c1ccc(Cl)cc1 | - | nucleotide incorporation | 10 µg/mL | 1% |
| C=CCOC(=O)N1c2ccccc2C=CC1C#N | - | nucleotide incorporation | 50 µM | ≤30% |
| CCCCN1C(=O)c2ccnnc2Oc2ccc(C)cc21 | - | ELISA | 33 µM | 16% |
| O=C1NC(c2c[nH]c3ccccc23)=C/C1=C1\C(=O)NC2C=CC=CC12 | - | RT activity / ELISA | 1000 µM | 17.68% |
| CCCN1c2ccc(C)cc2N(C)C(=O)c2ccnnc21 | - | - | 33 µM | 5% |
| O=C(NCCc1ccccc1)Nc1nc2c(Cl)cccc2s1 | - | nucleotide incorporation | 10 µg/mL | 1% |
| N#CC1C=Cc2ccccc2N1C(=O)OCCOc1ccccc1 | - | nucleotide incorporation | 50 µM | 47.8% |
| CCOc1ccc2nc(NC(=O)NCCc3ccccc3)sc2c1 | - | nucleotide incorporation | 1 µg/mL | 5% |
| C/C1=C\C=C\C2(C)C=C(CO)C(C)CC23OC([O-])C(C3=O)C(O)/C=C/C2(C)C=C(C=O)C(C)CC23OC([O-])C(C3=O)C(O)/C(C)=C/C=C/C2C=C(CO)C(C)CC23OC([O-])C(C3=O)C(O)/C=C/C2(C)C=C(C=O)C(C)CC23OC([O-])C(C3=O)C1O | IIIB | RT activity | 4 µg/mL | 58.1% |
| CS(=O)(=O)S(=O)(=O)N1c2ccccc2C=CC1C#N | - | nucleotide incorporation | 50 µM | ≤30% |
| CCOC(=O)CN1C(=O)c2ccnnc2Oc2ccc(OC)cc21 | - | ELISA | 330 µM | 29% |
| N#CC1C=Cc2cc([N+](=O)[O-])ccc2N1C(=O)OCCBr | - | nucleotide incorporation | 50 µM | 47.3% |
| Fc1cccc(Cl)c1CCNC(=S)Nc1nccs1 | - | nucleotide incorporation | 0.1 µg/mL | 43% |
| C=CCN1C(=O)c2ccnnc2Oc2ccc(C)cc21 | - | ELISA | 330 µM | 79% |
| CCCN1C(=O)c2ccnnc2N(C2CC2)c2ccc(C)cc21 | - | - | 330 µM | 39% |
| COc1ccc2c(c1)C=CC(C#N)N2C(=O)Oc1ccccc1 | - | nucleotide incorporation | 50 µM | ≤30% |
| CCCN1c2ccccc2N(CC)C(=O)c2cc(Cl)nnc21 | - | - | 330 µM | 74% |
| N#CC1C=Cc2ccccc2N1C(=O)c1ccncc1 | - | nucleotide incorporation | 50 µM | ≤30% |

Again, the opening 2 rows:

{"SMILES": "CCCOC(=O)N1c2ccccc2C=CC1C#N", "read by": "nucleotide incorporation", "dose": "50 µM", "value": "81.2%"}
{"SMILES": "O=C(NCCc1ccccc1)Nc1ccccc1Cl", "read by": "nucleotide incorporation", "dose": "1 µg/mL", "value": "31%"}